Results of unrelated studies side by side (data: NIAID ChemDB).

All rows: tests in culture; agent: Vaccinia virus

Percent inhibition refers to the dose given; in toxicity tests it is the harm to the cells. ECn: concentration that inhibits the pathogen or its effect by n%. a–b is a range or a potency band. Rows are shuffled and stem from different studies. Blank or dashed fields: not listed here.

smiles | cells | strain | dose | endpoint | value
O=c1[nH]c(=O)n([C@H]2C[C@H](O)[C@@H](CO)O2)cc1/C=C/Br | PRK |  |  | EC50 | 7 µg/mL
CC(C)(C)C(=O)OCOP(=O)(COCCn1cnc2c(N)ncnc21)OCOC(=O)C(C)(C)C | HFF | NYC |  | EC50 | 23 µM
Nc1ccn(C[C@@H](CO)OCP(=O)(O)O)c(=O)n1 | BSC |  |  | EC50 | 5 µg/mL
Nc1nc(N)c2ncn(CCOCP(=O)(O)O)c2n1 |  |  |  | MIC | 20 µg/mL
Nc1ccn(C[C@@H](CO)OCP(=O)(O)O)c(=O)n1 | HFF | IHD |  | EC50 | 13.4 µM
Nc1ncnc2c1ncn2C[C@@H](CO)OCP(=O)(O)O | PRK |  |  | EC50 | 0.3–0.7 µg/mL
CN(C)c1nc(N)nc2c1ncn2CCOCP(=O)(O)O | HFF | WR |  | EC50 | 22 µM
C#Cc1cn([C@H]2C[C@H](O)[C@@H](CO)O2)c(=O)[nH]c1=O | PRK |  |  | EC50 | 0.2 µg/mL
Cn1cc(NC(=O)c2cc(NC(=O)c3cc(NC=O)cn3C)cn2C)cc1C(=O)NCCC(=N)N | BSC-40 |  | 50 µM | inhibition | 100%
Nc1ccn([C@H]2CC[C@@H](CO)O2)c(=O)n1 | VERO |  |  | EC50 | >474 µM
N#Cc1cn([C@H]2C[C@H](O)[C@@H](CO)O2)c(=O)[nH]c1=O | PRK |  |  | EC50 | 4 µg/mL
Nc1nc(NCC(F)(F)F)c2ncn(CCOCP(=O)(O)O)c2n1 | HFF | WR |  | EC50 | 38 µM
Nc1ncnc2c1ncn2[C@@H]1C=C(CO)[C@@H](O)[C@H]1O |  |  |  | MIC | 0.02 µg/mL
Nc1nc(N)c2ncn(CCOCP(=O)(O)O)c2n1 | HFF | NYC |  | EC50 | 122 µM
Cn1cnc([N+](=O)[O-])c1Sc1ncnc2nc[nH]c12 | BSC-40 |  | 25 µg/mL | inhibition | 80%
Cc1cn([C@H]2C[C@H](N=[N+]=[N-])[C@@H](CO)O2)c(=O)[nH]c1=O | VERO |  |  | EC50 | >374 µM
NC(=O)c1ncn([C@@H]2O[C@H](CO)[C@@H](O)[C@H]2O)n1 |  |  | 50 µg/mL | inhibition | 100%
NC(=O)c1ncn([C@@H]2O[C@H](CO)[C@@H](O)[C@H]2O)n1 | PRK |  |  | EC50 | 4–20 µg/mL
Nc1ncnc2c1ncn2CCOCP(=O)(O)O |  |  |  | MIC | >100 µg/mL
CCCCOC(=O)C(C)NP(=O)(COCCn1cnc2c(N)ncnc21)NC(C)C(=O)OCCCC | HFF | Copenhagen |  | EC50 | 4.4 µM

Again, the opening 2 rows:

smiles,cells,strain,dose,endpoint,value
O=c1[nH]c(=O)n([C@H]2C[C@H](O)[C@@H](CO)O2)cc1/C=C/Br,PRK,,,EC50,7 µg/mL
CC(C)(C)C(=O)OCOP(=O)(COCCn1cnc2c(N)ncnc21)OCOC(=O)C(C)(C)C,HFF,NYC,,EC50,23 µM